{"source": "PubChem BioAssay AID1259414 – Drosophila RNAi Screening Center, 2018", "test": "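Fly genes that alter Wolbachia amount inside host cells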 (primary screen)", "system": "Drosophila JW18 cells infected with Wolbachia", "reagent": "long dsRNA against Drosophila genes, 0.25 µg dsRNA per well of a 384-well plate", "duration": "5 days", "treatment": "cells persistently infected with Wolbachia before knock-down; no added drug", "read-out": "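Imaged fluorescence in situ signal for Wolbachia 23S rRNA per DAPI-counted host cell, given as a robust z-score within each plate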", "reading the numbers": "Wolbachia per cell robust z: higher = more Wolbachia per host cell than the plate typical", "call rule": "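Hit when robust z is 1.5 or more, or -1.5 or less, in at least two of three replicates; excludes dsRNAs with several or no targets, genes not expressed in JW18 and well A1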", "note": "In all, the deposit lists about 24,000 reagents; below is an unselected part of those that have a named target and a result. Over the whole deposit, about 1,210 (5%) were called active. 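Inactive calls also include excluded dsRNAs with several or no targets, genes unexpressed in JW18, and well A1, regardless of score.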 Reagents against one gene are numbered here. No sequences are given here."}
{"Target gene": "ncd", "reagent": 1, "Wolbachia per cell robust z, rep 1": 1.48, "Wolbachia per cell robust z, rep 2": -0.458, "Wolbachia per cell robust z, rep 3": 0.737, "activity call": "inactive"}
{"Target gene": "CG42750", "reagent": 1, "Wolbachia per cell robust z, rep 1": -0.448, "Wolbachia per cell robust z, rep 2": 0.208, "Wolbachia per cell robust z, rep 3": -4.79, "activity call": "inactive"}
{"Target gene": "CG42750", "reagent": 2, "Wolbachia per cell robust z, rep 1": 0.743, "Wolbachia per cell robust z, rep 2": -0.349, "Wolbachia per cell robust z, rep 3": -1.09, "activity call": "inactive"}
{"Target gene": "CG42750", "reagent": 3, "Wolbachia per cell robust z, rep 1": -0.932, "Wolbachia per cell robust z, rep 2": 1.28, "Wolbachia per cell robust z, rep 3": -0.633, "activity call": "inactive"}
{"Target gene": "CG42750", "reagent": 4, "Wolbachia per cell robust z, rep 1": 0.468, "Wolbachia per cell robust z, rep 2": 0.675, "Wolbachia per cell robust z, rep 3": 0.749, "activity call": "inactive"}
{"Target gene": "CG42750", "reagent": 5, "Wolbachia per cell robust z, rep 1": -0.386, "Wolbachia per cell robust z, rep 2": 0.897, "Wolbachia per cell robust z, rep 3": -0.323, "activity call": "inactive"}
{"Target gene": "CG42750", "reagent": 6, "Wolbachia per cell robust z, rep 1": -0.603, "Wolbachia per cell robust z, rep 2": -1.03, "Wolbachia per cell robust z, rep 3": 0.0476, "activity call": "inactive"}
{"Target gene": "Lst8", "reagent": 1, "Wolbachia per cell robust z, rep 1": 1.04, "Wolbachia per cell robust z, rep 2": -0.704, "Wolbachia per cell robust z, rep 3": 0.936, "activity call": "inactive"}
{"Target gene": "CG5639", "reagent": 1, "Wolbachia per cell robust z, rep 1": -0.37, "Wolbachia per cell robust z, rep 2": 0.961, "Wolbachia per cell robust z, rep 3": -3.8, "activity call": "inactive"}

Entries above whose gene name begins with C or c (7):
{"Target gene": "CG42750", "reagent": 1, "Wolbachia per cell robust z, rep 1": -0.448, "Wolbachia per cell robust z, rep 2": 0.208, "Wolbachia per cell robust z, rep 3": -4.79, "activity call": "inactive"}
{"Target gene": "CG42750", "reagent": 2, "Wolbachia per cell robust z, rep 1": 0.743, "Wolbachia per cell robust z, rep 2": -0.349, "Wolbachia per cell robust z, rep 3": -1.09, "activity call": "inactive"}
{"Target gene": "CG42750", "reagent": 3, "Wolbachia per cell robust z, rep 1": -0.932, "Wolbachia per cell robust z, rep 2": 1.28, "Wolbachia per cell robust z, rep 3": -0.633, "activity call": "inactive"}
{"Target gene": "CG42750", "reagent": 4, "Wolbachia per cell robust z, rep 1": 0.468, "Wolbachia per cell robust z, rep 2": 0.675, "Wolbachia per cell robust z, rep 3": 0.749, "activity call": "inactive"}
{"Target gene": "CG42750", "reagent": 5, "Wolbachia per cell robust z, rep 1": -0.386, "Wolbachia per cell robust z, rep 2": 0.897, "Wolbachia per cell robust z, rep 3": -0.323, "activity call": "inactive"}
{"Target gene": "CG42750", "reagent": 6, "Wolbachia per cell robust z, rep 1": -0.603, "Wolbachia per cell robust z, rep 2": -1.03, "Wolbachia per cell robust z, rep 3": 0.0476, "activity call": "inactive"}
{"Target gene": "CG5639", "reagent": 1, "Wolbachia per cell robust z, rep 1": -0.37, "Wolbachia per cell robust z, rep 2": 0.961, "Wolbachia per cell robust z, rep 3": -3.8, "activity call": "inactive"}

More records follow.
{"Target gene": "CG12241", "reagent": 1, "Wolbachia per cell robust z, rep 1": 0.933, "Wolbachia per cell robust z, rep 2": 0.476, "Wolbachia per cell robust z, rep 3": -0.795, "activity call": "inactive"}
{"Target gene": "CG12241", "reagent": 2, "Wolbachia per cell robust z, rep 1": -1.27, "Wolbachia per cell robust z, rep 2": 0.663, "Wolbachia per cell robust z, rep 3": -0.251, "activity call": "inactive"}
{"Target gene": "thoc7", "reagent": 1, "Wolbachia per cell robust z, rep 1": 0.17, "Wolbachia per cell robust z, rep 2": 0.414, "Wolbachia per cell robust z, rep 3": 0.559, "activity call": "inactive"}
{"Target gene": "thoc7", "reagent": 2, "Wolbachia per cell robust z, rep 1": 1.15, "Wolbachia per cell robust z, rep 2": 0.28, "Wolbachia per cell robust z, rep 3": -0.355, "activity call": "inactive"}
{"Target gene": "CG3703", "reagent": 1, "Wolbachia per cell robust z, rep 1": 0.0673, "Wolbachia per cell robust z, rep 2": 0.277, "Wolbachia per cell robust z, rep 3": -0.641, "activity call": "inactive"}
{"Target gene": "CG3703", "reagent": 2, "Wolbachia per cell robust z, rep 1": -5.04, "Wolbachia per cell robust z, rep 2": 0.547, "Wolbachia per cell robust z, rep 3": -0.718, "activity call": "inactive"}
{"Target gene": "CG3703", "reagent": 3, "Wolbachia per cell robust z, rep 1": 0.105, "Wolbachia per cell robust z, rep 2": -3.94, "Wolbachia per cell robust z, rep 3": 0.152, "activity call": "inactive"}
{"Target gene": "CG32767", "reagent": 1, "Wolbachia per cell robust z, rep 1": 1.35, "Wolbachia per cell robust z, rep 2": -1.45, "Wolbachia per cell robust z, rep 3": 1.44, "activity call": "inactive"}
{"Target gene": "CG32767", "reagent": 2, "Wolbachia per cell robust z, rep 1": 1.21, "Wolbachia per cell robust z, rep 2": 0.789, "Wolbachia per cell robust z, rep 3": 0.502, "activity call": "inactive"}
{"Target gene": "CG5188", "reagent": 1, "Wolbachia per cell robust z, rep 1": -0.462, "Wolbachia per cell robust z, rep 2": -0.574, "Wolbachia per cell robust z, rep 3": 0.0225, "activity call": "inactive"}
{"Target gene": "CG13065", "reagent": 1, "Wolbachia per cell robust z, rep 1": -0.739, "Wolbachia per cell robust z, rep 2": -0.443, "Wolbachia per cell robust z, rep 3": 1.49, "activity call": "inactive"}
{"Target gene": "CG13065", "reagent": 2, "Wolbachia per cell robust z, rep 1": 0.0371, "Wolbachia per cell robust z, rep 2": 0.00216, "Wolbachia per cell robust z, rep 3": 1.43, "activity call": "inactive"}
{"Target gene": "yki", "reagent": 1, "Wolbachia per cell robust z, rep 1": 0.931, "Wolbachia per cell robust z, rep 2": 0.595, "Wolbachia per cell robust z, rep 3": 1.24, "activity call": "inactive"}
{"Target gene": "yki", "reagent": 2, "Wolbachia per cell robust z, rep 1": 0.622, "Wolbachia per cell robust z, rep 2": -0.797, "Wolbachia per cell robust z, rep 3": -0.518, "activity call": "inactive"}
{"Target gene": "yki", "reagent": 3, "Wolbachia per cell robust z, rep 1": 0.0507, "Wolbachia per cell robust z, rep 2": 0.103, "Wolbachia per cell robust z, rep 3": -2.56, "activity call": "inactive"}
